Results of unrelated studies side by side (data: NIAID ChemDB).

ICn is the concentration giving n% inhibition. Neighbouring rows are from separate reports. An empty or dashed field is not shown. CCn: concentration that lowers growth or viability of the cells by n%. ECn: concentration that inhibits the pathogen or its effect by n%. Percent inhibition refers to the dose given; in toxicity tests it is the harm to the cells.

SMILES | dose | strain | cells | organism | test | method | endpoint | target | setting | result
Cc1cn(C2CC(OP(=O)(O)OCC3OC(n4cnc5c(=O)[nH]c(N)nc54)CC3OP(=O)(O)OCC3OC(n4cnc5c(=O)[nH]c(N)nc54)CC3OP(C)(=O)OCC3OC(n4cnc5c(=O)[nH]c(N)nc54)CC3OP(C)(=O)OCC3OC(n4cnc5c(N)ncnc54)CC3OP(C)(=O)OCC3OC(n4cnc5c(=O)[nH]c(N)nc54)CC3O)C(COCc3ccc(OCc4ccccc4)c(OCc4ccccc4)c3)O2)c(=O)[nH]c1=O |  |  | MT-4 |  | toxicity |  | CC50 |  |  | >50 µg/mL
O=c1[nH]c(=O)n(-c2ccc([N+](=O)[O-])cc2[N+](=O)[O-])cc1[N+](=O)[O-] | 6.25 µg/mL |  |  | Mycobacterium tuberculosis | culture |  | inhibition |  |  | 93%
O=[N+]([O-])c1ccc(Cn2nnc(-c3cc([N+](=O)[O-])cc([N+](=O)[O-])c3)n2)cc1 |  | 6509/96 |  | Mycobacterium kansasii | culture |  | MIC |  | 14 d | 4 µM
N#Cc1c(SCCBr)nsc1-c1ccccc1 |  |  | VERO |  | toxicity |  | CC50 |  |  | 25 µg/mL
Cc1cn([C@H]2C[C@H](F)[C@@H](COP(=O)(O)CF)O2)c(=O)[nH]c1=O |  |  | H9 |  | toxicity | trypan blue | CC50 |  |  | >100 µM
Nc1ncnc2c1ncn2[C@H]1CC[C@@H](CO)O1 |  |  | MT-4 | HIV-1 | culture | p24 | EC50 |  |  | 5.04 µM
Cc1cn([C@H]2C[C@H](N=[N+]=[N-])[C@@H](COP(=O)(F)OCCSC(=O)C(C)(C)C)O2)c(=O)[nH]c1=O |  |  | MT-4 |  | toxicity |  | CC50 |  |  | >100 µM
Nc1ncnc2c1ncn2[C@H]1CC[C@@H](CO)O1 |  |  | MT-4 | HIV-1 | culture | p24 / ELISA | EC50 |  |  | 5.04 µM
Cc1cn([C@H]2CC[C@@H](CO)O2)c(=O)[nH]c1=O |  |  | MT-4 | HIV-1 | culture | RT activity | EC50 |  |  | 5.52 µM
Cc1cn([C@H]2CC[C@@H](COP(=O)(O)F)O2)c(=O)[nH]c1=O |  |  | PBMC | HIV-1 | culture | p24 | EC50 |  |  | 100 µM
Cc1cn([C@H]2C[C@H](F)[C@@H](CO)O2)c(=O)[nH]c1=O |  |  | MT-4 | HIV-1 | culture | p24 / ELISA | EC50 |  |  | 0.0069 µM
O=[N+]([O-])c1ccc(-n2cnc([N+](=O)[O-])n2)c([N+](=O)[O-])c1 |  |  | VERO |  | toxicity |  | CC50 |  |  | 0.39 µg/mL
Cc1cn([C@H]2C[C@H](F)[C@@H](COP(=O)(O)C(F)F)O2)c(=O)[nH]c1=O |  |  | H9 | HIV-1 | culture | p24 | EC50 |  |  | 8 µM
CCc1cn([C@H]2C[C@H](O)[C@@H](COP(=O)(O)F)S2)c(=O)[nH]c1=O |  | L2 acyclovir-susceptible | VERO | Herpes simplex virus 1 | culture | cytopathic effect | EC50 |  |  | 269 µM
Cc1cn([C@H]2C[C@H](F)[C@@H](COP(=O)(O)C#N)O2)c(=O)[nH]c1=O |  |  | MT-4 |  | toxicity |  | CC50 |  |  | 160 µM
Cc1c([N+](=O)[O-])c(C)c(S(=O)(=O)c2c(C)c([N+](=O)[O-])c(C)c([N+](=O)[O-])c2C)c(C)c1[N+](=O)[O-] |  |  |  | HIV-1 | target | strand transfer | IC50 | Integrase |  | >100 µM
CC[C@H](CO)NC(=S)NP(=O)(c1ccccc1)c1ccccc1 |  |  | HEK293T |  | toxicity | MTT | CC50 |  |  | 179.6 µM

For reference, 2 entries again:

{"SMILES": "Nc1ncnc2c1ncn2[C@H]1CC[C@@H](CO)O1", "cells": "MT-4", "organism": "HIV-1", "test": "culture", "method": "p24", "endpoint": "EC50", "result": "5.04 µM"}
{"SMILES": "Cc1cn([C@H]2CC[C@@H](CO)O2)c(=O)[nH]c1=O", "cells": "MT-4", "organism": "HIV-1", "test": "culture", "method": "RT activity", "endpoint": "EC50", "result": "5.52 µM"}